Pooled drug test results. Numbers come from NIAID ChemDB, via PubChem.

Common to all: whole-cell or culture tests; organism: Herpes simplex virus 1; read-out: EC50

Two numbers with a dash give a range or band.

Nc1ncnc2c1ncn2/C=C1/C[C@H]1CO ; method: cytopathic effect ; cells: HFF ; result: 460 µM
Cc1c(-c2ccc(F)cc2)[nH]c2nc3c(ncn3COCCO)c(=O)n12 ; strain: McIntyre ; method: cytopathic effect ; cells: HEL ; result: 0.384 µg/mL
O=C(O)P(=O)(O)O ; strain: K1 ; method: plaque count ; cells: GMK ; result: 83.3 µM
O=c1c2ncn(COC(CO)CO)c2nc2[nH]c(-c3ccc(C(F)(F)F)cc3)cn12 ; strain: KOS ; method: cytopathic effect ; cells: HEL ; result: 1.92 µg/mL
Nc1nc2c(ncn2CC2CSC(P(=O)(O)O)O2)c(=O)[nH]1 ; strain: KOS ; method: plaque count ; cells: VERO ; result: 8 µg/mL
CC(=O)OC(C)[C@H]1CCC2C3CC4[C@H](C)C[C@@]5(CC[C@H](OC(C)=O)C[C@]45Cl)C3CC[C@@]21C ; strain: KOS ; method: cytopathic effect ; cells: BHK-21 ; result: 27.4 µM
Nc1nc2c(ncn2C[C@H]2CC[C@H](P(=O)(O)O)O2)c(=O)[nH]1 ; strain: KOS ; method: plaque count ; cells: VERO ; result: 12.5 µg/mL
O=C(O)c1ccccc1-c1nc2ccccc2n1C(=O)c1ccc([N+](=O)[O-])cc1 ; strain: KOS ; result: >100 µg/mL
Cc1cn([C@H]2C[C@H](O)[C@@H](CN)O2)c(=O)[nH]c1=O ; method: plaque count ; cells: VERO ; result: <100 µM
O=C(c1ccncc1)n1c(-c2ccccc2Cl)nc2ccccc21 ; strain: KOS ; result: >20 µg/mL
Cn1cc(C(=O)NCc2ccc(Cl)cc2)c(=O)c2cc(CN3CCOCC3)ccc21 ; strain: PAA/R acyclovir-resistant ; method: plaque count ; cells: HFF ; result: 0.6 µM
O=c1[nH]c(=O)n([C@H]2C[C@H](O)[C@@H](CO)O2)cc1/C=C\Cl ; strain: F ; method: cytopathic effect ; cells: PRK ; result: 0.7 µg/mL
CCCSc1nc(N)nc2c1ncn2/C=C1/C[C@@H]1CO ; method: cytopathic effect ; cells: HFF ; result: >343 µM
O=c1c2ncn(COCCO)c2nc2[nH]c(-c3ccccc3)c(Cc3ccc(F)cc3)n12 ; strain: McIntyre ; method: cytopathic effect ; cells: HEL ; result: >16 µg/mL
Nc1nc2c(ncn2[C@@H]2C[C@H](CO)C[C@H]2O)c(=O)[nH]1 ; strain: 377 ; method: cytopathic effect ; cells: VERO ; result: 67–170 µg/mL
CCC[C@]1(CC(=O)O)OCCc2c1[nH]c1c(C)ccc(C#N)c21 ; strain: KOS ; method: ELISA ; cells: VERO ; result: >100 µM
CC1(C)C[C@H]2[C@H](OC(=O)[C@H](O)[C@@H](NC(=O)c3ccccc3)c3ccccc3)c3cocc3C[C@](C)(O)[C@H]2C1 ; strain: McIntyre ; method: cytopathic effect ; cells: VERO ; result: 15 µg/mL
Oc1ccc([C@H]2Oc3cc(O)cc4c3[C@@H]2c2cc(O)cc3c2[C@@H](c2cc(O)cc5c2[C@@H]4[C@H](c2ccc(O)cc2)O5)[C@H](c2ccc(O)cc2)O3)cc1 ; method: MTT ; cells: VERO ; result: 27.4 µM
OC[C@H]1O[C@H](c2cncc(Br)c2)[C@@H](O)[C@@H]1O ; strain: KOS ; method: cytopathic effect ; cells: E6SM ; result: ≥100 µg/mL
O=C(O)CP(=O)(O)O ; cells: WI-38 ; result: <100 µg/mL
OC1=CC2C3C(=C1)O[C@H](c1ccc(O)cc1)[C@@H]3c1cc(O)cc(O)c1[C@@H]2[C@@H](c1ccc(O)cc1)[C@H](c1ccc(O)cc1)[C@H]1c2c(O)cc(O)cc2[C@H]2C3C(=CC(O)=CC31)O[C@H]2c1ccc(O)cc1 ; method: MTT ; cells: VERO ; result: 27.9 µM
O=C(c1ccc([N+](=O)[O-])cc1)n1c(-c2ccc(Cl)cc2)nc2ccccc21 ; strain: KOS ; result: >100 µg/mL
Oc1ccc([C@@H]2c3c(O)cc(O)cc3[C@H]3c4c(cc(O)c5c4[C@@H]2[C@H](c2ccc(O)cc2)[C@H]5c2cc(O)cc(O)c2)O[C@@H]3c2ccc(O)cc2)cc1 ; method: MTT ; cells: VERO ; result: 12.1 µM
O=C(NCc1ccc(Cl)cc1)c1cn2c3c(cc(CN4CCOCC4)cc3c1=O)OC(c1cccnc1)C2 ; strain: F ; method: plaque count ; cells: HFF ; result: 6.7 µM
O=C(c1ccccc1Br)n1c(-c2ccc([N+](=O)[O-])cc2)nc2ccccc21 ; strain: KOS ; result: >100 µg/mL
CCc1cn([C@H]2C[C@H](O)[C@@H](CO)O2)c(=O)[nH]c1=O ; strain: Isolate 229 ; method: cytopathic effect ; cells: BHK-21 ; result: 1.37 µg/mL
COC(=O)[C@H](C)NP(=O)(OC[C@H]1C/C1=C/n1cnc2c(=O)[nH]c(N)nc21)Oc1ccccc1 ; method: plaque count ; cells: HFF ; result: 22.1 µM
NC(=S)c1cncc([C@H]2O[C@H](CO)[C@@H](O)[C@@H]2O)c1 ; strain: KOS ; method: cytopathic effect ; cells: E6SM ; result: ≥100 µg/mL
Nc1nc2c(ncn2CCCCO)c(=O)[nH]1 ; strain: C915 TK- ; method: plaque count ; cells: VERO ; result: >200 µM
CC(=O)OC(C)[C@H]1CCC2C3CC4CC[C@@]5(CC[C@H](OC(C)=O)C[C@]45Cl)C3CC[C@@]21C ; strain: KOS ; method: cytopathic effect ; cells: BHK-21 ; result: 12.9 µM
CC1(C)C[C@H]2[C@H](OC(=O)[C@H](O)[C@@H](NC(=O)c3ccccc3)c3ccccc3)C3=C(C[C@](C)(O)[C@H]2C1)C(=O)OC3 ; strain: McIntyre ; method: cytopathic effect ; cells: VERO ; result: 17.3 µg/mL
COC(=O)[C@H](C)NP(=O)(OCC1C/C1=C/n1cnc2c(NC3CC3)nc(N)nc21)Oc1ccccc1 ; method: cytopathic effect ; cells: HFF ; result: 1.3 µM
CC[C@@H](C(C)C)[C@@H](O)[C@H](O)[C@@H](C)[C@H]1CC[C@H]2[C@@H]3CC(=O)[C@H]4C[C@@H](OC(C)=O)CC[C@]4(C)[C@H]3CC[C@]12C ; strain: B2006 (TK-) ; method: plaque count ; cells: VERO ; result: 14.9 µM
CC(=O)OC(C)[C@H]1CCC2C3CC=C4C[C@@H](OC(C)=O)CC[C@]4(C=O)C3CC[C@@]21C ; strain: KOS ; method: cytopathic effect ; cells: BHK-21 ; result: 3.94 µM
Nc1nc(=O)n([C@H]2C[C@H](O)[C@@H](CO)O2)cc1/C=C/Br ; strain: McIntyre ; method: cytopathic effect ; cells: Primary rabbit kidney cells ; result: 0.06 µg/mL
NC[C@H]1O[C@@H](n2ccc(=O)[nH]c2=O)C[C@@H]1O ; method: plaque count ; cells: VERO ; result: >100 µM
Cc1c(-c2ccc(C(F)(F)F)cc2)[nH]c2nc3c(ncn3COCCO)c(=O)n12 ; strain: TK- ; method: cytopathic effect ; cells: HEL ; result: >16 µg/mL
C=CCOc1nc(N)nc2c1ncn2/C=C1/C[C@@H]1CO ; method: cytopathic effect ; cells: HFF ; result: >366 µM
OC[C@H]1O[C@@H](c2cncc(Br)c2)[C@@H](O)[C@@H]1O ; strain: KOS ; method: cytopathic effect ; cells: E6SM ; result: ≥100 µg/mL
Nc1nc2c(ncn2/C=C2/CC2(CO)CO)c(=O)[nH]1 ; method: cytopathic effect ; cells: HFF ; result: >404 µM
O=C(c1ccc([N+](=O)[O-])cc1)n1c(-c2cccc([N+](=O)[O-])c2)nc2ccccc21 ; strain: KOS ; result: >20 µg/mL
Nc1nc2c(nnn2[C@@H]2C[C@H](CO)[C@@H](O)[C@H]2O)c(=O)[nH]1 ; strain: HF ; method: cytopathic effect ; cells: HEP-2 ; result: 81 µg/mL
Nc1nc(NC2CC2)c2ncn(/C=C3/C[C@@H]3CO)c2n1 ; method: cytopathic effect ; cells: HFF ; result: 63.5 µM
COC(=O)[C@H](C)NP(=O)(OC[C@H]1C/C1=C/n1cnc2c(OC)nc(N)nc21)Oc1ccccc1 ; method: cytopathic effect ; cells: HFF ; result: 0.78 µM
Nc1nc(=O)n([C@H]2C[C@H](O)[C@@H](CO)O2)cc1/C=C/Cl ; strain: KOS ; method: cytopathic effect ; cells: PRK ; result: 0.07 µg/mL
Oc1ccc([C@@H]2c3c(O)cc(O)cc3[C@H]3c4c(cc(O)cc4[C@H]2[C@@H]2c4cc(O)cc5c4[C@@H](c4cc(O)cc(O)c4[C@H]2c2ccc(O)cc2)[C@H](c2ccc(O)cc2)O5)O[C@@H]3c2ccc(O)cc2)cc1 ; method: MTT ; cells: VERO ; result: 17.3 µM
[N-]=[N+]=NC[C@H]1O[C@@H](n2cc(Br)c(=O)[nH]c2=O)C[C@@H]1O ; method: plaque count ; cells: VERO ; result: >100 µM
C=CCNc1nc(N)nc2c1ncn2/C=C1/C[C@@H]1CO ; method: cytopathic effect ; cells: HFF ; result: 227 µM
CC(=O)NC1[C@H](COC[C@@H]2C(CO)O[C@@H](COC[C@@H]3C(CO)O[C@@H](O)C(NC(C)=O)[C@@H]3O)C(NC(C)=O)[C@@H]2O)OC(CO)[C@@H](O)[C@H]1O ; strain: KOS ; method: cytopathic effect ; cells: VERO ; result: >200 µg/mL
Nc1nc(NCC2CC2)c2ncn(/C=C3/C[C@@H]3CO)c2n1 ; method: cytopathic effect ; cells: HFF ; result: >349 µM
Nc1ncnc2c1ncn2/C=C1/CC1(CO)CO ; method: ELISA ; cells: BSC-1 ; result: >100 µM
Nc1nc(=O)c(/C=C/Br)cn1[C@H]1C[C@H](O)[C@@H](CO)O1 ; strain: B2006 (TK-) ; method: cytopathic effect ; cells: PRK ; result: >400 µg/mL
CC1(C)C[C@H]2[C@H](OC(=O)[C@H](O)[C@@H](NC(=O)c3ccccc3)c3ccccc3)C34COC(=O)C3(C4)C[C@](C)(O)[C@H]2C1 ; strain: McIntyre ; method: cytopathic effect ; cells: VERO ; result: 21.9 µg/mL
Nc1ccn(C=C2C[C@H]2CO)c(=O)n1 ; method: cytopathic effect ; cells: HFF ; result: 104 µM
Oc1ccc([C@H]2c3c(O)cc(O)cc3[C@H]3c4c(cc(O)c5c4[C@H]2[C@@H](c2ccc(O)cc2)[C@@H]5c2cc(O)cc(O)c2)O[C@@H]3c2ccc(O)cc2)cc1 ; method: MTT ; cells: VERO ; result: 16.7 µM
C=C1CC2C[C@@H](OC(=O)c3ccccc3)[C@H]3[C@](C)(C(=O)O)CCC[C@]3(C)C23CCC1C3 ; strain: HF ; method: plaque count ; cells: HELA229 ; result: 0.012 µg/mL

The last 5 rows once more:

Nc1nc(=O)c(/C=C/Br)cn1[C@H]1C[C@H](O)[C@@H](CO)O1 ; strain: B2006 (TK-) ; method: cytopathic effect ; cells: PRK ; result: >400 µg/mL
CC1(C)C[C@H]2[C@H](OC(=O)[C@H](O)[C@@H](NC(=O)c3ccccc3)c3ccccc3)C34COC(=O)C3(C4)C[C@](C)(O)[C@H]2C1 ; strain: McIntyre ; method: cytopathic effect ; cells: VERO ; result: 21.9 µg/mL
Nc1ccn(C=C2C[C@H]2CO)c(=O)n1 ; method: cytopathic effect ; cells: HFF ; result: 104 µM
Oc1ccc([C@H]2c3c(O)cc(O)cc3[C@H]3c4c(cc(O)c5c4[C@H]2[C@@H](c2ccc(O)cc2)[C@@H]5c2cc(O)cc(O)c2)O[C@@H]3c2ccc(O)cc2)cc1 ; method: MTT ; cells: VERO ; result: 16.7 µM
C=C1CC2C[C@@H](OC(=O)c3ccccc3)[C@H]3[C@](C)(C(=O)O)CCC[C@]3(C)C23CCC1C3 ; strain: HF ; method: plaque count ; cells: HELA229 ; result: 0.012 µg/mL

ECn is the concentration giving n% inhibition of infection, replication or growth. Neighbouring rows are from separate reports.